Results of unrelated studies side by side (data: NIAID ChemDB).

All rows: toxicity to cultured cells; measure: CC50

Blank or dashed fields: not listed here. Neighbouring rows are from separate reports. CCn: concentration that lowers growth or viability of the cells by n%.

SMILES | method | cells | result
Cc1c(C(=O)Nc2ccc(B(O)O)cc2)c(C)n(C)c1C(=O)C(=O)NC(C)(C)C | MTT | HepG2 | >30 µM
Cn1cc(C(=O)O)c(=O)c2cc(N)c(N3CCN(c4cnccn4)CC3)cc21 | - | C3H/3T3 | 17 µg/mL
CCCCCCCCCCCCCCCCCCOP(=O)(O)OC[C@H]1O[C@@H](N2CCc3c(-c4ccccc4)ncnc32)[C@@H](O)C1O | MTT | Human fibroblasts MRC-5 | >50 µM
CC(C)N(Cc1cccc(OCCCCCC(=O)OC(=O)O)c1)C(=O)c1ccc(-c2cccc([N+](=O)[O-])c2)cc1 | - | RAJI | >20 µM
CCCSc1nc(N)nc2c1ncn2/C=C1/C[C@@H]1CO | - | MEF | >343 µM
Cn1cc(C(=O)O)c(=O)c2cc(N)c(N3CCN(c4cccc(C(F)(F)F)c4)CC3)cc21 | - | C3H/3T3 | 0.67 µg/mL
CN(C(=O)[C@H](Cc1ccccc1)NC(=O)CNC(=O)c1ccccc1)c1cccc(Cl)c1 | XTT | TZM-gfp | >50 µM
CS(=O)(=O)C1(c2noc(C(=O)NC34CC(c5nc6ccc(Cl)cc6s5)(C3)C4)n2)CC1 | absorbance | Primary human hepatocytes | 16.8 µM
CCOc1cccc(-c2ccc(C(=O)N(Cc3cccc(OCCCCCC(=O)OC(=O)O)c3)C(C)C)cc2)c1 | - | HEK 293 | >20 µM
Cc1ccc(-c2ccc(OCCCCCOc3cccc(NC(N)=S)c3)cc2)cc1 | MTS | Ava5-EG(delta4AB)SEAP | >1 µM
COc1cc([C@@H]2c3cc4c(cc3[C@@H](O[C@@H]3O[C@@H]5CO[C@@H](C)O[C@H]5[C@H](O)[C@H]3O)[C@H]3COC(=O)[C@H]23)OCO4)cc(OC)c1O | resazurin | WS1 Cell Line | 18.5 µg/mL
Br.CN1C=CN(c2cccc(N3C=CN(C)C3)n2)C1 | sulforhodamine | 4T1 | >30 µM
O=C(Nc1ccc2c(c1)OCO2)c1cc(-c2cccs2)nc2ccccc12 | - | RAJI | >20 µM
Cc1cc(NC(=O)c2c(C)c(C(=O)C(=O)N[C@H]3CCN(CC(=O)O)C3)n(C)c2C)ccc1F | MTT | HepG2 | >30 µM
Cc1cn(CC(=O)N[C@@H](Cc2ccccc2)C(=O)N(C)c2ccc(F)cc2)c(=O)[nH]c1=O | XTT | TZM-gfp | >50 µM
Cc1c(C(=O)NC23CCC(O)(CC2)CC3)c(C)n(C)c1C(=O)C(=O)Nc1cccnc1 | MTT | HepG2 | >30 µM
CCOC(=O)CCCCCOc1cccc(CN(C(=O)c2ccc(-c3cnc(OC)nc3OC)cc2)C(C)C)c1 | - | RAJI | >20 µM
CCOC(=O)c1ccc(OCCC2CCN(c3ccc(C)nn3)CC2)cc1 | - | H1-HELA | >100 µM
CN(C(=O)[C@H](Cc1ccccc1)NC(=O)CC1NC(=O)NC1=O)c1ccccc1 | XTT | TZM-gfp | >50 µM
O=c1[nH]c(=O)n([C@H]2C[C@H](O)[C@@H](CO)O2)cc1/C=C/Br | - | P3HR-1 | 360 µM
CCOC(=O)/C=C/[C@H](C[C@@H]1CCNC1=O)NC(=O)[C@H](Cc1ccc(F)cc1)NC(=O)[C@@H](NC(=O)c1cc(C)on1)C(C)C | - | H1-HELA | >10 µM
CCN(CC)CCNc1cc(C)nc2c1ccc1c2ccc2c(NCCN(CC)CC)cc(C)nc21 | MTT | Macrophage line RAW 264.7 | 0.00332 µM
Nc1nc2c(ncn2COC(CO)CO)c(=O)[nH]1 | - | GPE | 2900 µM
CCOC(=O)CCCCCOc1cccc(CN(C(=O)c2ccc(-c3cccc4ccccc34)cc2)C(C)C)c1 | - | RAJI | >20 µM
Cc1nc(N2CC[N+]3(CC2)CC[N+]2(CCNCC2)CC3)c([N+](=O)[O-])c(N2CC[N+]3(CC2)CC[N+]2(CCNCC2)CC3)n1 | - | L929 | >228.7 µg/mL
Cc1c2ccnc(Cl)c2cc2c3cn(C)ccc-3nc12 | - | HOS-/CD4+/CCR5+ | >1 µM
Cc1cc(NC(=O)c2c(C)c(C(=O)C(=O)NC3(C)CCC(O)CC3)n(C)c2C2CCCC2)ccc1F | MTT | HepG2 | >30 µM
CCOC(=O)/C=C/[C@H](C[C@@H]1CCNC1=O)NC(=O)[C@H](Cc1ccccc1)NC(=O)[C@@H](NC(=O)COc1ccccc1)C(C)C | - | H1-HELA | >100 µM
Cc1cc(NC(=O)c2c(C)c(C(=O)C(=O)NC3(C)CNC(=O)C34CC4)n(C)c2C)ccc1F | MTT | HepG2 | >30 µM
Nc1ncnc2c1ncn2/C=C1/CC1(CO)CO | - | HSB-2 | 47 µM
NC(=S)Nc1ccc2c(c1)Cc1cc(NC(=O)c3ccno3)ccc1-2 | MTS | Ava5-EG(delta4AB)SEAP | >1 µM
OCC1CCC(c2ccc3ncnc(Nc4ccc(C5CCOCC5)cc4)c3c2)O1 | - | Huh7.5+J6/JFH-1 | 29.3 µM
O=[N+]([O-])c1c(Cl)nc(C(F)(F)F)nc1N1CC[N+]2(CC1)CC[N+]1(CCN(c3nc(C(F)(F)F)nc(Cl)c3[N+](=O)[O-])CC1)CC2 | - | GMK | >652.5 µg/mL
CCCCCOc1nc(N)nc2c1ncn2/C=C1/C[C@@H]1CO | - | HSB-2 | >96 µM
c1ccc(-c2cc3ccccn3c2)nc1 | MTT | MRC-5 | 214 µM
Nc1cc2c(=O)c(C(=O)O)cn(C3CC3)c2cc1N1CCN(c2cccc(C(F)(F)F)c2)CC1 | - | C3H/3T3 | 2.9 µg/mL
NC(=S)Nc1cccc(OCCCCCOc2cccc3ccccc23)c1 | MTS | Ava5-EG(delta4AB)SEAP | >1 µM
COC(=O)[C@H](Cc1cccc2ccccc12)Nc1nc2ccc(NC(=O)OC(C)(C)C)c(C)c2c(=O)o1 | - | H1-HELA | >100 µM
O=C(CNC(=O)c1ccccc1)N[C@@H](Cc1ccccc1)C(=O)N1CCCC1C(=O)Nc1ccccc1 | - | TZM-gfp | >50 µM
Cc1cc(NC(=O)c2c(C)c(C(=O)C(=O)NC3(C)CCC(O)CC3)n(C)c2-c2ccncc2)ccc1F | MTT | HepG2 | >30 µM
CN(C(=O)[C@H](Cc1ccccc1)NC(=O)CC1NC(=O)NC1=O)c1ccc(F)cc1 | XTT | TZM-gfp | >50 µM
Nc1ccn(/C=C2/CC2(CO)CO)c(=O)n1 | - | HSB-2 | 41 µM
CCOC(=O)/C=C/[C@H](CCC(N)=O)NC(=O)[C@H](Cc1ccccc1)NC(=O)[C@H](CC(C)C)NC(=O)c1cc(C)on1 | - | H1-HELA | >100 µM
CN(C(=O)[C@H](Cc1ccccc1)NC(=O)CNC(=O)c1ccccc1)c1ccccc1 | XTT | TZM-gfp | >50 µM
CCc1c(C(=O)Nc2ccc(F)c(C)c2)c(C)c(C(=O)C(=O)NCC(C)(C)O)n1C | MTT | HepG2 | >30 µM
c1ccc(-c2cc3c4ccccc4ccn3c2)cc1 | MTT | MRC-5 | >500 µM
CCOC(=O)CCCCCOc1cccc(CN(C(=O)c2ccc(-c3ccc(C(C)=O)s3)cc2)C(C)C)c1 | - | HepG2 | >20 µM
CCOC(=O)/C=C/[C@H](C[C@@H]1CCNC1=O)NC(=O)[C@H](Cc1ccccc1)NC(=O)[C@H](CC(C)C)NC(=O)COc1ccccc1 | - | H1-HELA | >100 µM
CC(C)N(Cc1cccc(OCCCCCC(=O)O)c1)C(=O)c1ccc(-c2ccc3c(c2)OCO3)cc1 | - | BJ | >20 µM
c1csc(-c2cc3ccccn3c2)c1 | MTT | MRC-5 | 90 µM
O=C(CNC(=O)c1ccccc1)N[C@@H](Cc1ccccc1)C(=O)N1CCC[C@H]1C(=O)Nc1ccccc1 | XTT | TZM-gfp | >50 µM
C[C@H]1[C@H](O)[C@@H](C)/C=C/C=C/C=C/C=C/C=C/C=C/C=C/[C@H](O[C@@H]2O[C@H](C)[C@@H](O)[C@H](N)[C@@H]2O)C[C@@H]2O[C@](O)(C[C@@H](O)C[C@@H](O)CC[C@H](O)[C@@H](O)C[C@@H](O)CC(=O)O[C@H]1C)C[C@H](O)[C@H]2C(=O)O | MTT | CEMx174 | >10 µM
Cc1cccc(-c2ccccc2OCCCCCOc2cccc(NC(N)=S)c2)c1 | MTS | Ava5-EG(delta4AB)SEAP | >1 µM
CN(C(=O)[C@H](Cc1ccccc1)NC(=O)c1c[nH]c(=O)[nH]c1=O)c1ccccc1 | XTT | TZM-gfp | >50 µM
O=[N+]([O-])c1c(N2CC[N+]3(CC2)CC[N+]2(CCNCC2)CC3)ncnc1N1CC[N+]2(CC1)CC[N+]1(CCN(c3ncnc(N4CC[N+]5(CC4)CC[N+]4(CCNCC4)CC5)c3[N+](=O)[O-])CC1)CC2 | - | L929 | >146.1 µg/mL
O=C1N(CCCCCCOc2ccc(C(F)(F)F)cc2)CCN1c1ccncc1 | - | RD | >25 µM
Nc1nc(NC2CC2)c2ncn(/C=C3/C[C@@H]3CO)c2n1 | - | CBL | 25.6 µM
NC(=S)Nc1cccc(NCCCCCCCCc2ccccc2)c1 | MTS | Ava5-EG(delta4AB)SEAP | >1 µM
Cc1c(C(=O)Nc2cc(F)c(F)c(F)c2)c(C)n(C)c1C(=O)C(=O)NC1(C)CCC(O)CC1 | MTT | HepG2 | >30 µM
NC(=S)Nc1cccc(OCCCCCOc2ccc(-c3ccco3)cc2)c1 | MTS | Ava5-EG(delta4AB)SEAP | >1 µM
N#Cc1ccn2cc(-c3ccccc3)cc2c1 | MTT | MRC-5 | 253 µM

3 of the rows above, restated:

O=c1[nH]c(=O)n([C@H]2C[C@H](O)[C@@H](CO)O2)cc1/C=C/Br ; cells: P3HR-1 ; result: 360 µM
CCOC(=O)/C=C/[C@H](C[C@@H]1CCNC1=O)NC(=O)[C@H](Cc1ccccc1)NC(=O)[C@H](CC(C)C)NC(=O)COc1ccccc1 ; cells: H1-HELA ; result: >100 µM
Cn1cc(C(=O)O)c(=O)c2cc(N)c(N3CCN(c4cccc(C(F)(F)F)c4)CC3)cc21 ; cells: C3H/3T3 ; result: 0.67 µg/mL